# PSTVd loop 6 mutant pool in Nicotiana benthamiana

From the data files of Wu et al. 2024, doi:10.1371/journal.ppat.1012142.

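Three N. benthamiana plants were inoculated with the whole mutant pool. Samples came from the inoculated region at 5 days, the leaf margin at 10 and upper systemic leaves at 12.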

Region: loop 6 of PSTVd (intermediate strain), upper and lower strand joined, each 5' to 3', the first 5 letters being the upper strand, closing pairs included. Wild type: UGACCGCGAG. Varied positions (N): UNNNCGNNNG.

Values are reads per thousand in the sample; higher means more abundant, 0 means not found.
Each value is the mean of three plants.
"Pool" is the share in the plasmid pool used as inoculum, on the same scale.
The inoculated region was read from the minus strand, the other sites from the plus strand.
The authors trace changes outside the varied positions to PCR and sequencing errors or to mutation in the plant; presence does not show that a variant is infectious alone.
Wild type was 20.7 per thousand in the pool and the most common sequence in every sample (inoculated region 195, 198, 203; leaf margin 629, 591, 734; systemic leaves 942, 870, 868).
With 36,220-57,551 reads a sample, very low values are single reads.

UAUCCGAUGG (pool 0.484) gave inoculated region 0.108; leaf margin 0.0161; systemic leaves 0.0137. UCCUCGGUCG (pool 0.144) read inoculated region 0.0712; leaf margin 0.00773; systemic leaves 0. UAAGCGUCGG (pool 0.288) gave inoculated region 0.101; leaf margin 0.00920; systemic leaves 0.0202. With UGUGCGCCGG (pool 0.144) the assay gave inoculated region 0.108; leaf margin 0; systemic leaves 0. UUGUCGAGCG (pool 0.301) read inoculated region 0.102; leaf margin 0; systemic leaves 0. For UCGACGCCAG (pool 0.170) the result was inoculated region 0.0961; leaf margin 0.00920; systemic leaves 0. UCGCCGCGAU (pool 0.0131) gave inoculated region 0.548; leaf margin 0.125; systemic leaves 0. UGUUCGAAAG (pool 0.183) read inoculated region 0.101; leaf margin 0; systemic leaves 0. For GUCGCGACCG (pool 0.0131) the result was inoculated region 0; leaf margin 0; systemic leaves 0.

With UCCCCGGACG (pool 0.261) the assay gave inoculated region 0.0890; leaf margin 0.0414; systemic leaves 0. With UGAGCUACGG (pool 0.0131) the assay gave inoculated region 0; leaf margin 0; systemic leaves 0. For UUUCCGUAGG (pool 0.301) the result was inoculated region 0.131; leaf margin 0.0464; systemic leaves 0. UUCACGGAAG (pool 0.196) gave inoculated region 0.549; leaf margin 0.0875; systemic leaves 0. With UAACCGAACG (pool 0.105) the assay gave inoculated region 0.589; leaf margin 0.0943; systemic leaves 0. For UUGCCGAGGG (pool 0.405) the result was inoculated region 0.148; leaf margin 0.00773; systemic leaves 0. For UUACCGAUUG (pool 0.261) the result was inoculated region 0.199; leaf margin 0; systemic leaves 0. UCGGCGUCCG (pool 0.222) read inoculated region 0.101; leaf margin 0.00773; systemic leaves 0. UAUUCGGCUG (pool 0.392) read inoculated region 0.658; leaf margin 0.0866; systemic leaves 0.0405.

For UGCACGGGCG (pool 0.196) the result was inoculated region 0.0824; leaf margin 0; systemic leaves 0. For UGUCCGUGCG (pool 0.222) the result was inoculated region 0.101; leaf margin 0.00920; systemic leaves 0. UUUCCGGCCG (pool 0.288) read inoculated region 0.119; leaf margin 0.00773; systemic leaves 0. With UCGCCGUACG (pool 0.340) the assay gave inoculated region 0.0478; leaf margin 0.0155; systemic leaves 0. For UCGUCGGUCG (pool 0.353) the result was inoculated region 0.0824; leaf margin 0; systemic leaves 0. UCAACGGGAG (pool 0.144) read inoculated region 0.688; leaf margin 0.164; systemic leaves 0.0669. With UAGACGCGAG (pool 0.144) the assay gave inoculated region 0.114; leaf margin 0.161; systemic leaves 0.0196. UUUGCGGGUG (pool 0.196) gave inoculated region 0.0775; leaf margin 0; systemic leaves 0. UUCUCGAUUG (pool 0.510) gave inoculated region 0.0827; leaf margin 0.00773; systemic leaves 0.

UACUCGUAUG (pool 0.275) read inoculated region 0.0775; leaf margin 0.0537; systemic leaves 0. With UCGGCGCUAG (pool 0.235) the assay gave inoculated region 0.0654; leaf margin 0; systemic leaves 0. UAUCCGAGUG (pool 0.183) gave inoculated region 0.131; leaf margin 0; systemic leaves 0. UUUUCGUGCG (pool 0.118) gave inoculated region 0.0838; leaf margin 0; systemic leaves 0. UUACCGAUGG (pool 0.144) gave inoculated region 0.143; leaf margin 0; systemic leaves 0. For UAGGCGCCAG (pool 0.275) the result was inoculated region 0.143; leaf margin 0.00773; systemic leaves 0. For UUGCCGAAUG (pool 0.314) the result was inoculated region 0.0593; leaf margin 0.00773; systemic leaves 0. UGGCCGCACG (pool 0.170) gave inoculated region 0.203; leaf margin 0.0184; systemic leaves 0. With UAAACGGUUG (pool 0.118) the assay gave inoculated region 0.672; leaf margin 0.0400; systemic leaves 0.

For UACUCGGGAG (pool 0.235) the result was inoculated region 0.107; leaf margin 0; systemic leaves 0. UUCUCGUAUG (pool 0.366) read inoculated region 0.0882; leaf margin 0.0828; systemic leaves 0. For UCUUCGCCCG (pool 0.275) the result was inoculated region 0.119; leaf margin 0; systemic leaves 0.

4 of these entries, quoted again:

| sequence | pool | inoculated region | leaf margin | systemic leaves |
|---|---|---|---|---|
| UUCACGGAAG | 0.196 | 0.549 | 0.0875 | 0 |
| UACUCGUAUG | 0.275 | 0.0775 | 0.0537 | 0 |
| UUUCCGGCCG | 0.288 | 0.119 | 0.00773 | 0 |
| UCGGCGUCCG | 0.222 | 0.101 | 0.00773 | 0 |